The values that follow come from paper PMC9612231, “Antileishmanial Anthracene Endoperoxides: Efficacy In Vitro, Mechanisms and Structure-Activity Relationships” (Molecules, 2022).

Molecules are shown by their SMILES. “And” between values parts separate entries of the source, which are not always exact repeats. Equal entries are not always repeated. “Also recorded” adds a separate entry of the source.

A short description of this series: EPR spin trapping with DMPO after reaction of AcEP with FeSO4. As to conditions: for DMPO spin adduct Assignment / DMPO spin adduct aH (proton hyperfine coupling constant) / DMPO spin adduct aN (nitrogen hyperfine coupling constant) / DMPO spin adduct aN/aH: reductant Fe^2+, WINSIM simulation of EPR spectra.

As for `CC(=O)OCC1OC(C23C=C(C(C)(C)C)C(C4OC(COC(C)=O)C(OC(C)=O)C(OC(C)=O)C4OC(C)=O)(OO2)c2ccccc23)C(OC(C)=O)C(OC(C)=O)C1OC(C)=O` (stereo not shown) [MB359EP], the “DMPO spin adduct Assignment” value is listed as “DMPO/^●C”, the “DMPO spin adduct aH (proton hyperfine coupling constant)” value (shortened to “DMPO spin adduct aH”) was 22.8 G, the “DMPO spin adduct aN (nitrogen hyperfine coupling constant)” value was 16.1 G and the “DMPO spin adduct aN/aH” value is listed as 0.70.
In the case of `CC(=O)OCC1OC(OC23OOC(c4ccccc42)c2ccccc23)C(OC(C)=O)C(OC(C)=O)C1OC(C)=O` (stereo not shown) [MonoGluAcEP], the “DMPO spin adduct Assignment” value is “DMPO/^●C; also recorded: DMPO/^●OH”; the “DMPO spin adduct aH” value was 23.9 G and 14.5 G; the “DMPO spin adduct aN (nitrogen hyperfine coupling constant)” value is 15.8 G and 15.0 G; the “DMPO spin adduct aN/aH” value was 0.66 and 1.03.
Turning to `CC(C)(C)c1ccc2c(c1)C1(c3cccnc3)OOC2(c2cccnc2)c2ccccc21` (stereo not shown) [mPyBuAcEP], under “reaction with iron, DMPO spin trap”, the “DMPO spin adduct detection” value was “no DMPO spin adduct could be detected”.
`c1ccc(C23OOC(c4ccccn4)(c4ccccc42)c2ccccc23)nc1` [oPyAcEP]: the “DMPO spin adduct Assignment” value is reported as “DMPO/^●C”, the “DMPO spin adduct aH” value is reported as 23.3 G, the “DMPO spin adduct aN (nitrogen hyperfine coupling constant)” value is given as 15.7 G and the “DMPO spin adduct aN/aH” value is given as 0.67.
